Anti-infective test results gathered from many reports (values: NIAID ChemDB through PubChem).

Common to all: whole-cell or culture tests; agent: HIV-2; read by: cytopathic effect / MTT; endpoint: EC50

An empty or dashed field is not shown.

smiles | strain | cell line | mutations | result
CCOCn1c(Cc2ccccc2)c(C(C)C)c(=O)[nH]c1=O | EHO | MT-4 | RT-S102L | 25.8 µM
Cn1ncc2c1S(=O)(=O)N(Cc1cccc(Cl)c1)C(=O)N2Cc1ccc(Cl)cc1 | ROD | MT-4 |  | >246.1 µM
COC(=O)C(Cc1ccccc1)NC(=O)[C@@H](NC(=O)[C@@H](C[C@H](O)[C@H](CC1CCCCC1)NC(=O)[C@@H](NC(=O)[C@H](Cc1ccccc1)CS(=O)(=O)C(C)(C)C)C(C)C)C(C)C)C(C)C | EHO | MT-4 |  | 9 µM
c1cc(CN2CCCNCCNCCCNCC2)ccc1CN1CCCNCCNCCCNCC1 | ROD | MT-4 |  | 0.007 µg/mL
COc1ccc2c(c1)nc1n2C(c2c(Cl)cccc2Cl)SC1 | ROD | MT-4 |  | >1.7 µM
CCc1c(C(=O)c2cccc3ccccc23)n(C/C=C/C(=O)OC)c(=O)[nH]c1=O | ROD | MT-4 |  | >34.44 µM
CC(C)(C)C(=O)OCOP(=O)(COCCn1cnc2c(N)ncnc21)OCOC(=O)C(C)(C)C |  | CEM |  | 0.25 µM
C[C@H](C[n+]1c[nH]c2c(N(C)C)nc(N)nc21)OCP(=O)(O)O | ROD | MT-4 |  | 4.2 ± 2.8 µg/mL
Cc1cn([C@H]2C[C@H](N=[N+]=[N-])[C@@H](CO)O2)c(=O)[nH]c1=O | ROD | MT-4 |  | 0.0011 µM
Cc1cccc2c1nc1n2C(c2c(F)cccc2F)SC1 | ROD | MT-4 |  | >49.6 µM
C#CCn1c(C(=O)c2cccc3ccccc23)c(C(C)C)c(=O)[nH]c1=O | ROD | MT-4 |  | >4.1 µM
Cc1cn([C@H]2C[C@H](N=[N+]=[N-])[C@@H](CO)O2)c(=O)[nH]c1=O | ROD | MT-4 |  | 0.002 µM
CO[C@H]1[C@@H](O)[C@H](n2cnc3c(N)ncnc32)[C@@H](O)[C@H](O)[C@@H]1O.O=C(O)/C=C/C(=O)O |  | MT-4 |  | >10 µg/mL
CC(C)c1c(C(=O)c2cccc3ccccc23)n(C/C=C/c2ccccc2)c(=O)n(C/C=C/c2ccccc2)c1=O | ROD | MT-4 |  | >129 µM
CCN(CC)c1ncnc2c1ncn2CCOCP(=O)(O)O | ROD | CEM |  | >4 µg/mL
CO[C@@H]1[C@@H](O)[C@@H](O)[C@H](O)[C@H](O)[C@H]1n1cnc2c(N)ncnc21.O=C(O)/C=C/C(=O)O |  | MT-4 |  | >10 µg/mL
COc1ccc2nc3n(c2c1)C(c1c(F)cccc1F)SC3 | ROD | MT-4 |  | >392 µM
Cn1ncc2c1S(=O)(=O)N(Cc1cccc(Cl)c1)C(=O)N2Cc1ccc(F)cc1 | ROD | MT-4 |  | >216.1 µM
C=C1C[C@@H](n2cnc3c(=O)[nH]c(N)nc32)[C@@H]1CO | ROD | MT-4 |  | >100 µM
CCCCCCCCCCCCOC1OC(COS(=O)(=O)O)C(OC2OC(COS(=O)(=O)O)C(OC3OC(COS(=O)(=O)O)C(OC4OC(COS(=O)(=O)O)C(OC5OC(COS(=O)(=O)O)C(OC6OC(COS(=O)(=O)O)C(OS(=O)(=O)O)C(OS(=O)(=O)O)C6O)C(OS(=O)(=O)O)C5OS(=O)(=O)O)C(O)C4OS(=O)(=O)O)C(OS(=O)(=O)O)C3O)C(OS(=O)(=O)O)C2O)C(O)C1OS(=O)(=O)O | ROD | MT-4 |  | 0.9 µg/mL
C=CCn1c(C(=O)c2cccc3ccccc23)c(C(C)C)c(=O)[nH]c1=O | ROD | MT-4 |  | >37 µM
Fc1cccc(F)c1[C@@H]1SCc2nc3ccccc3n21 | ROD | MT-4 |  | >11 µg/mL
CO[C@H]1[C@@H](O)[C@H](n2ccc(N)nc2=O)[C@@H](O)[C@H](O)[C@@H]1O |  | MT-4 |  | >10 µg/mL
C[C@H](CC1CNC2C1OC(N)CN2N)OCP(=O)(O)O | ROD | CEM |  | >100 µg/mL
Cn1ncc2c1S(=O)(=O)N(Cc1cccc(Cl)c1)C(=O)N2Cc1ccccc1C#N | ROD | MT-4 |  | >233.3 µM
Fc1ccc2c(c1)nc1n2C(c2c(Cl)cccc2Cl)SC1 | ROD | MT-4 |  | >13.3 µM
Cn1ncc2c1S(=O)(=O)N(Cc1cccc(Cl)c1)C(=O)N2Cc1ccccc1Br | ROD | MT-4 |  | >252.3 µM
Nc1ncnc2c1ncn2[C@@H]1C[C@H](CO)[C@H]1CO | ROD | MT-4 |  | 4.4 µM
CN(C)CCNc1ncnc2c1ncn2CCOCP(=O)(O)O | ROD | CEM |  | 75 µg/mL
CC(=O)c1ccc(C)cc1NC(C(N)=O)c1c(Cl)cccc1Cl | EHO | MT-4 | RT-E219D | 14 µM
Cc1cccc2nc3n(c12)C(c1c(F)cccc1Cl)SC3 | ROD | MT-4 |  | >25.7 µM
Cc1cn([C@H]2C[C@H](N=[N+]=[N-])[C@@H](CO)O2)c(=O)[nH]c1=O |  | MT-4 |  | <10 µg/mL
CC(=O)Oc1ccc(/C=C/C(=O)O[C@@H](C(=O)O)[C@@H](OC(=O)/C=C/c2ccc(OC(C)=O)c(OC(C)=O)c2)C(=O)O)cc1OC(C)=O | ROD | MT-4 |  | 25.5 µM
Fc1ccc2nc3n(c2c1)C(c1c(F)cccc1Cl)SC3 | ROD | MT-4 |  | >28.2 µM
C[C@H](C[n+]1c[nH]c2c(NCCCC3CCCCC3)nc(N)nc21)OCP(=O)(O)O | ROD | CEM |  | 2.5 ± 0.7 µg/mL
C=CCn1c(C(=O)c2cccc3ccccc23)c(CC)c(=O)[nH]c1=O | ROD | MT-4 |  | >39.22 µM
C[C@H](C[n+]1c[nH]c2c(NCCCCCCCC3CCCCC3)nc(N)nc21)OCP(=O)(O)O | ROD | MT-4 |  | 7 ± 2.6 µg/mL
Cn1ncc2c1S(=O)(=O)N(Cc1cccc(Cl)c1)C(=O)N2Cc1ccccc1 | ROD | MT-4 |  | >300.1 µM
CCc1c(C(=O)c2cccc3ccccc23)n(CC=C(C)C)c(=O)[nH]c1=O | ROD | MT-4 |  | >36.33 µM
C[C@H](C[n+]1c[nH]c2c(Nc3ccoc3)nc(N)nc21)OCP(=O)(O)O | ROD | CEM |  | 6 ± 5.7 µg/mL
CCc1c(C(=O)c2cccc3ccccc23)n(COC)c(=O)[nH]c1=O | ROD | MT-4 |  | >34.35 µM
Cn1ncc2c1S(=O)(=O)N(Cc1cccc(Cl)c1)C(=O)N2Cc1ccc(Br)cc1 | ROD | MT-4 |  | >252.3 µM
CC(C)CNc1nc(N)nc2c1ncn2CCOCP(=O)(O)O | ROD | CEM |  | 0.3 µg/mL

The first 5 rows once more:

smiles,strain,cell line,mutations,result
CCOCn1c(Cc2ccccc2)c(C(C)C)c(=O)[nH]c1=O,EHO,MT-4,RT-S102L,25.8 µM
Cn1ncc2c1S(=O)(=O)N(Cc1cccc(Cl)c1)C(=O)N2Cc1ccc(Cl)cc1,ROD,MT-4,,>246.1 µM
COC(=O)C(Cc1ccccc1)NC(=O)[C@@H](NC(=O)[C@@H](C[C@H](O)[C@H](CC1CCCCC1)NC(=O)[C@@H](NC(=O)[C@H](Cc1ccccc1)CS(=O)(=O)C(C)(C)C)C(C)C)C(C)C)C(C)C,EHO,MT-4,,9 µM
c1cc(CN2CCCNCCNCCCNCC2)ccc1CN1CCCNCCNCCCNCC1,ROD,MT-4,,0.007 µg/mL
COc1ccc2c(c1)nc1n2C(c2c(Cl)cccc2Cl)SC1,ROD,MT-4,,>1.7 µM

ECn is the concentration giving n% inhibition of infection, replication or growth. Neighbouring rows are from separate reports.